{"source": "paper PMC12391581", "about": "(Antiviral Research, 2025)", "key": {"[1]": {"test_system": "neuraminidase (NA) of B/Victoria-lineage viruses", "conditions": "cited from earlier work"}, "[2]": {"test_system": "neuraminidase (NA) of A(H3N2) viruses", "conditions": "N2 deletions at NA-245-248 and NA-247-250; ref Abed et al., 2009; Tamura et al., 2015; cited from earlier work"}, "[3]": {"test_system": "neuraminidase (NA) of B/Victoria-lineage viruses", "test": "Fluorescence-based NA inhibition assay (MUNANA substrate)", "format": "biochemical, influenza B/Victoria-lineage virus", "conditions": "for Fold-change in IC50: WHO CC London"}, "[4]": {"conditions": "influenza B NA-D197E, previously associated, ref Burnham et al., 2014, Hurt et al., 2006, Monto et al."}, "[5]": {"conditions": "influenza B NA-D197N, previously associated, ref NA marker tables"}}, "note": "Where two headings read alike, the source gives them in different places."}
{"compound": "CCOC(=O)C1=C[C@@H](OC(CC)CC)[C@H](NC(C)=O)[C@@H](N)C1", "note": "[Oseltamivir, oseltamivir]", "values": [{"measurement": "NAI inhibition phenotype (NI/RI/HRI)", "setting": "[1]; [4]", "value": "RI (RI is a 5- to 50-fold increase)"}, {"measurement": "NAI inhibition phenotype (NI/RI/HRI)", "setting": "[1]; [5]", "value": "NI/RI"}, {"measurement": "NAI inhibition phenotype (NI/RI/HRI)", "setting": "[2]", "value": "HRI (HRI is a >100-fold increase)"}, {"measurement": "Fold-change in IC50", "setting": "[3]; B/Bulgaria/1896/2023, no NA substitution", "value": 1.22, "unit": "fold"}, {"measurement": "Fold-change in IC50", "setting": "[3]; B/Catalonia/2279261NS/2023, no NA substitution", "value": 1.07, "unit": "fold"}, {"measurement": "Fold-change in IC50", "setting": "[3]; B/Catalonia/3511044NS/2022, no NA substitution", "value": 0.77, "unit": "fold"}, {"measurement": "Fold-change in IC50", "setting": "[3]; B/Netherlands/10195/2023, no NA substitution", "value": 1.80, "unit": "fold"}, {"measurement": "Fold-change in IC50", "setting": "[3]; B/Netherlands/10258/2023, no NA substitution", "value": 1.26, "unit": "fold"}, {"measurement": "Fold-change in IC50", "setting": "[3]; B/Slovenia/732/2023, no NA substitution", "value": 1.85, "unit": "fold"}, {"measurement": "IC50 fold-change compared to reference median IC50 values", "setting": "[3]; B/Victoria-lineage viruses with no known NA marker, n=6, Europe 2022–2023", "value": "0.77–1.85 fold"}]}
{"compound": "peramivir", "values": [{"measurement": "NAI inhibition phenotype (NI/RI/HRI)", "setting": "[1]; B/Victoria-lineage NA-K360E, previously exhibiting, ref WHO-AVWG NA marker table", "value": "HRI (HRI is a >50-fold increase)"}, {"measurement": "NAI inhibition phenotype (NI/RI/HRI)", "setting": "[1]; [4]", "value": "RI (RI is a 5- to 50-fold increase)"}, {"measurement": "NAI inhibition phenotype (NI/RI/HRI)", "setting": "[1]; [5]", "value": "NI/RI"}]}
